Measured values: PubChem BioAssay AID720532 (National Center for Advancing Translational Sciences (NCATS), 2013)
Where “and” joins values, the source holds several entries; their conditions need not be identical. Identical values can stand only once. What follows is the remainder of the data, with few or none of the hits. Records with an inconclusive call do not appear. Calls of active or inactive are those of the source. Calls follow the shape of the full dose curve; tested in HEK293 cells.

assay: qHTS for Inhibitors of binding or entry into cells for Marburg Virus; conditions: Marburg virus pseudotype entry/binding inhibition, cell-based; at 49.2 µM (top of the series)
% is scaled to controls: 0 for no effect and ±100 for the full control effect.

Q: With `COc1ccc(C[C@@H](C)NC[C@H](O)c2ccc(O)c(NC=O)c2)cc1` as the compound, how does the activity change, negative = inhibition read?
A: inactive: -13.9%

Q: For `Clc1ccc(N2CCN(Cc3c[nH]c4ncccc34)CC2)cc1`, which activity change, negative = inhibition is on record?
A: inactive: -3.22% and inactive: 11.4%

Q: With `COc1ccc(C[C@H](C)NC[C@@H](O)c2ccc(O)c(NC=O)c2)cc1` as the compound, how does the activity change, negative = inhibition read?
A: inactive: -7.76%

Q: For `CC(Cc1ccc(O)cc1)NCC(O)c1cc(O)cc(O)c1` (centres undefined), which activity change, negative = inhibition is on record?
A: inactive: -1.8% and inactive: -3.86%
